A mixed list of measured activities; the numbers were collected in NIAID ChemDB.

All rows: whole-cell or culture tests; species: Herpes simplex virus 1; method: cytopathic effect; measure: EC50

ECn is the concentration giving n% inhibition of infection, replication or growth.

{"compound": "O=c1[nH]c(=O)n([C@H]2C[C@H](O)[C@@H](CO)O2)cc1CN1CCCC1", "cell line": "PRK", "strain or isolate": "KOS", "value": ">200 µg/mL"}
{"compound": "CO[C@H](CO)[C@@H](O)CCn1ccc(N)nc1=O", "cell line": "E6SM", "strain or isolate": "F", "value": ">400 µg/mL"}
{"compound": "Nc1nc(=O)c(/C=C/Br)cn1[C@H]1C[C@H](O)[C@@H](CO)O1", "cell line": "PRK", "strain or isolate": "VMW1837 (TK-)", "value": ">400 µg/mL"}
{"compound": "Nc1ncnc2c1ncn2[C@@H]1O[C@H](CO)[C@@H](O)[C@H]1OP(=O)(O)OC[C@H]1O[C@@H](n2cnc3c(N)ncnc32)[C@H](OP(=O)(O)OC[C@H]2O[C@@H](n3cc(F)c(=O)[nH]c3=O)C[C@@H]2O)[C@@H]1O", "cell line": "PRK", "strain or isolate": "B2006 (TK-)", "value": "1 µg/mL"}
{"compound": "CCc1cn([C@H]2C[C@H](O)[C@@H](CO)O2)c(=O)[nH]c1=O", "cell line": "PRK", "strain or isolate": "McIntyre", "value": "1 µg/mL"}
{"compound": "CCc1cn([C@H]2C[C@H](O)[C@@H](CO)O2)c(=O)[nH]c1=O", "cell line": "PRK", "strain or isolate": "KOS F McIntyre", "value": "0.7 µg/mL"}
{"compound": "[N-]=[N+]=NCc1cn([C@H]2C[C@H](O)[C@@H](CO)O2)c(=O)[nH]c1=O", "cell line": "PRK", "strain or isolate": "VEO231", "value": "10 µg/mL"}
{"compound": "O=c1[nH]c(=O)n([C@H]2C[C@H](O)[C@@H](CO)O2)cc1I", "cell line": "PRK", "strain or isolate": "KOS F McIntyre", "value": "0.15 µg/mL"}
{"compound": "Cc1c(-c2ccc(F)cc2)[nH]c2nc3c(ncn3COCCO)c(=O)n12", "cell line": "HEL", "strain or isolate": "TK-", "value": ">80 µg/mL"}
{"compound": "OC[C@H]1O[C@@H](c2cc(I)c(F)cc2F)C[C@@H]1O", "cell line": "E6SM", "strain or isolate": "VMW 1837", "value": ">400 µg/mL"}
{"compound": "O=c1c2ncn(COCCO)c2nc2[nH]c(-c3ccc(C(F)(F)F)cc3)cn12", "cell line": "HEL", "strain or isolate": "F", "value": "16 µg/mL"}
{"compound": "CC=NC(=N)c1nc(-c2ccc(C)cc2)n(Cc2ccccc2)n1", "cell line": "E6SM", "strain or isolate": "VMW 1837", "value": ">4 µg/mL"}
{"compound": "O=c1[nH]c(=O)n([C@H]2C[C@H](O)[C@@H](CO)O2)cc1/C=C/Br", "cell line": "PRK", "strain or isolate": "KOS", "value": "0.007 µg/mL"}
{"compound": "Cc1cc([C@H]2C[C@H](O)[C@@H](CO)O2)c(F)cc1F", "cell line": "E6SM", "strain or isolate": "F", "value": ">400 µg/mL"}
{"compound": "[N-]=[N+]=N[C@@H]1[C@@H](OP(=O)(O)OC[C@H]2O[C@@H](n3cnc4c(N)ncnc43)[C@H](OP(=O)(O)OCCOCn3cnc4c(=O)[nH]c(N)nc43)[C@H]2N=[N+]=[N-])[C@H](n2cnc3c(N)ncnc32)O[C@@H]1CO", "cell line": "PRK", "strain or isolate": "B2006 (TK-)", "value": "300 µg/mL"}
{"compound": "Nc1ncnc2c1ncn2C[C@H](O)CO", "cell line": "PRK", "strain or isolate": "1 (PAA-resistant)", "value": ">400 µg/mL"}
{"compound": "O=c1[nH]c(=O)n([C@H]2C[C@H](O)[C@@H](CO)O2)cc1I", "cell line": "PRK", "strain or isolate": "VEX149", "value": "0.15 µg/mL"}
{"compound": "CO[C@H](CO)[C@@H](O)CCn1cnc2c(=O)[nH]c(N)nc21", "cell line": "E6SM", "strain or isolate": "B2006 (TK-)", "value": ">400 µg/mL"}
{"compound": "CCCCCC[C@@H]([C@H](C)O)n1cnc2c(N)ncnc21", "cell line": "PRK", "strain or isolate": "KOS F McIntyre", "value": "100 µg/mL"}
{"compound": "CCc1cn([C@H]2C[C@H](O)[C@@H](CO)O2)c(=O)[nH]c1=O", "cell line": "PRK", "strain or isolate": "KOS", "value": "2 µg/mL"}
{"compound": "C=Cc1cc([C@H]2C[C@H](O)[C@@H](CO)O2)c(F)cc1F", "cell line": "E6SM", "strain or isolate": "F", "value": ">400 µg/mL"}
{"compound": "CCc1cn([C@H]2C[C@H](O)[C@@H](COP(=O)(O)O)O2)c(=O)[nH]c1=O", "cell line": "HEP-2", "strain or isolate": "KOS", "value": "0.4 µg/mL"}
{"compound": "OC[C@H]1O[C@@H](c2cc(F)c(F)cc2F)C[C@@H]1O", "cell line": "E6SM", "strain or isolate": "VMW 1837", "value": ">400 µg/mL"}
{"compound": "Nc1nc(=O)n([C@@H]2O[C@H](CO)[C@@H](O)[C@@H]2F)cc1I", "cell line": "PRK", "strain or isolate": "KOS", "value": "0.02 µg/mL"}
{"compound": "CSCc1cn([C@H]2C[C@H](O)[C@@H](CO)O2)c(=O)[nH]c1=O", "cell line": "PRK", "strain or isolate": "B2006 (TK-)", "value": ">200 µg/mL"}
{"compound": "Nc1ncnc2c1ncn2CC[C@H](O)CCO", "cell line": "E6SM", "strain or isolate": "VMW1837 (TK-)", "value": ">400 µg/mL"}
{"compound": "Nc1nc2c(ncn2COCCO)c(=O)[nH]1", "cell line": "BALB/3T3", "strain or isolate": "KOS", "value": "0.01 µg/mL"}
{"compound": "C=C(N=CC)c1nc(-c2ccc(OC)cc2)n([C@@H]2O[C@H](CO)[C@@H](O)[C@H]2O)n1", "cell line": "E6SM", "strain or isolate": "KOS", "value": "300 µg/mL"}
{"compound": "O=c1c2ncn(COCCO)c2nc2[nH]c(-c3ccc(F)cc3)cn12", "cell line": "HEL", "strain or isolate": "TK-", "value": ">16 µg/mL"}
{"compound": "Nc1ccn([C@@H]2O[C@H](CO)[C@@H](O)[C@@H]2O)c(=O)n1", "cell line": "HeLa", "strain or isolate": "KOS", "value": "0.1 µg/mL"}
{"compound": "CC=NC(=N)c1nc(-c2ccc(OC)cc2)n(C/C=C/c2ccccc2)n1", "cell line": "E6SM", "strain or isolate": "VMW 1837", "value": ">10 µg/mL"}
{"compound": "O=c1[nH]c(=O)n([C@H]2C[C@H](O)[C@@H](CO)O2)cc1I", "cell line": "VERO", "strain or isolate": "KOS", "value": "0.7 µg/mL"}
{"compound": "Nc1nc2c(ncn2COCCO)c(=O)[nH]1", "cell line": "HFF", "strain or isolate": "15985 SC16-S1 (acyclovir-resistant)", "value": ">50 µg/mL"}
{"compound": "N#Cc1cc([C@H]2C[C@H](O)[C@@H](CO)O2)c(F)cc1F", "cell line": "E6SM", "strain or isolate": "VMW 1837", "value": ">400 µg/mL"}
{"compound": "CO[C@H](CO)[C@@H](O)CCn1cc(C)c(=O)[nH]c1=O", "cell line": "E6SM", "strain or isolate": "KOS", "value": ">400 µg/mL"}
{"compound": "OC[C@H]1O[C@@H](c2cc(C#CI)c(F)cc2F)C[C@@H]1O", "cell line": "E6SM", "strain or isolate": "KOS", "value": ">400 µg/mL"}
{"compound": "Cc1cn([C@H]2C[C@H](O)[C@@H](CO)S2)c(=O)[nH]c1=O", "cell line": "HEL", "value": "0.008 µg/mL"}
{"compound": "Nc1nc2c(ncn2COCCO)c(=O)[nH]1", "cell line": "PRK", "strain or isolate": "F", "value": "0.2 µg/mL"}
{"compound": "Nc1ncnc2c1ncn2[C@@H]1O[C@H](CO)[C@@H](O)[C@@H]1O", "cell line": "PRK", "strain or isolate": "KOS F McIntyre", "value": "5 µg/mL"}
{"compound": "OC[C@H]1O[C@@H](c2cc(/C=C/I)c(F)cc2F)C[C@@H]1O", "cell line": "E6SM", "strain or isolate": "F", "value": "48 µg/mL"}
{"compound": "O=c1[nH]c(=O)n([C@H]2C[C@H](O)[C@@H](CO)O2)cc1/C=C/I", "cell line": "HSF", "strain or isolate": "KOS", "value": "0.02 µg/mL"}
{"compound": "CC=NC(=N)c1nc(-c2ccc(OC)cc2)n(Cc2ccccc2)n1", "cell line": "E6SM", "strain or isolate": "KOS", "value": ">40 µg/mL"}
{"compound": "O=c1c2ncn(COCCO)c2nc2[nH]c(-c3ccccc3)c(Cc3ccccc3)n12", "cell line": "HEL", "strain or isolate": "TK-", "value": ">16 µg/mL"}

For reference, 4 entries again:

compound,cell line,strain or isolate,value
C=Cc1cc([C@H]2C[C@H](O)[C@@H](CO)O2)c(F)cc1F,E6SM,F,>400 µg/mL
CC=NC(=N)c1nc(-c2ccc(C)cc2)n(Cc2ccccc2)n1,E6SM,VMW 1837,>4 µg/mL
O=c1[nH]c(=O)n([C@H]2C[C@H](O)[C@@H](CO)O2)cc1I,PRK,KOS F McIntyre,0.15 µg/mL
Nc1nc2c(ncn2COCCO)c(=O)[nH]1,HFF,15985 SC16-S1 (acyclovir-resistant),>50 µg/mL

Rows are shuffled and stem from different studies.